A mixed list of measured activities; the numbers were collected in NIAID ChemDB.

Common to all: growth or infection tests; species: HIV-1; read by: cytopathic effect / MTT; measure: EC50

Two numbers with a dash give a range or band. ECn: concentration that inhibits the pathogen or its effect by n%. Rows are shuffled and stem from different studies. An empty or dashed field is not shown.

structure,setting,mutations,strain or isolate,cells,result
CC(=O)c1ccc(-c2ccc(N3C(=O)C(C#N)=CC4C3c3ccccc3N4C)cc2)s1,,,LAI,MT-4,1–32 µM
COc1ccc(Cn2c(C(=O)c3cc(C)cc(C)c3)c(C(C)C)c(=O)[nH]c2=O)cc1,,,,MT-4,0.003 µg/mL
Cc1c(C(=O)N[C@@H](Cc2ccccc2)[C@H](O)CN(CC(C)C)S(=O)(=O)c2ccc3nc(N)oc3c2)ccc(N)c1O,,,LAI WT,MT-4,0.3548 µM
COc1ccc2c(c1)C(=O)C(Cl)=C(C1=C(O)c3ccccc3C(=O)C1=O)C2=O,,,IIIB,CEM,5.3 µM
CCc1c(C(=O)c2cc(C)cc(F)c2)n(Cc2ccncc2)c(=O)[nH]c1=O,,,,MT-4,0.0101 µg/mL
C=CCCc1cccc(Cc2c(CC)c(=O)[nH]c(=O)n2COCC=C)c1,,,RT-K103N Y181C Mutant NNRTI-resistant,MT-4,5 µM
CCOC(=O)c1ccn(S(=O)(=O)c2cc(Cl)ccc2[N+](=O)[O-])c1,,,IIIB,MT-4,>0.7 µM
CCc1c(C(=O)c2cc(F)cc(F)c2)n(Cc2ccccn2)c(=O)[nH]c1=O,,,,MT-4,0.1189 µg/mL
O=c1c2ccccc2nc2scnn12,,,IIIB,MT-4,82.05 µg/mL
Cc1cc(C)cc(Oc2c(C(C)C)c(=O)[nH]c(=O)n2Cc2ccncc2)c1,,,,MT-4,0.01 µg/mL
CCc1c(Cc2cc(Cl)cc(Cl)c2)n(COC2CCc3ccccc32)c(=O)[nH]c1=O,,RT-K103N Y181C,NNRTI-resistant (RT K103N Y181C) A17,MT-4,10 µM
Cc1nc2sccn2c1C(=O)N[C@@H](Cc1ccccc1)[C@H](O)CN(CC(C)C)S(=O)(=O)c1ccc2nc(N)oc2c1,,,LAI WT,MT-4,0.2138 µM
Cc1cc(-c2nc(-c3ccc(S(=O)(=O)N(CC(C)C)C[C@@H](O)[C@H](Cc4ccccc4)NC(=O)O[C@H]4CO[C@H]5OCC[C@H]54)cc3)co2)no1,,,LAI,MT-4,0.004 µM
O=C(OC1CCCC1)c1cccn1S(=O)(=O)c1cc(Cl)ccc1[N+](=O)[O-],,,IIIB,MT-4,>11 µM
C=CCNc1nc(-c2ccc(S(=O)(=O)N(CC(C)C)C[C@@H](O)[C@H](Cc3ccccc3)NC(=O)COc3c(C)cc(Br)cc3C)cc2)cs1,,,LAI,MT-4,39.8 µM
CC(C)c1c(C(=O)c2cc(C(F)(F)F)cc(C(F)(F)F)c2)n(Cc2ccncc2)c(=O)[nH]c1=O,,,,MT-4,1.867 µg/mL
COC1=C(C2=C(Br)C(=O)c3cc(OC)ccc3C2=O)C(=O)c2ccccc2C1=O,,,IIIB,CEM,1.1 µM
CCOC(=O)CCC(NC(=O)c1ccc(Nc2nc3ccccc3n3cccc23)cc1)C(=O)OCC,,,,MT-4,>48 µM
Cc1c(N)cccc1C(=O)N[C@@H](Cc1ccccc1)[C@H](O)CN(CC(C)C)S(=O)(=O)c1ccc2nc(N)oc2c1,,,LAI WT,MT-4,0.0537 µM
CCC(C)[C@@H](C(=O)N[C@@H](Cc1ccccc1)[C@H](O)CN(CC(C)C)S(=O)(=O)c1ccc(/C=N/O)cc1)N1CCN(Cc2ccc(C)nc2)C1=O,,PR-L10F V32I M46I I47V Q68E I84V,A17 (LPV-resistant),MT-4,0.013 µM
CCOC(=O)CCC(NC(=O)c1ccc(Nc2nc3cc(C(F)(F)F)ccc3n3cccc23)cc1)C(=O)OCC,,,,MT-4,>39 µM
CCc1c(Cc2cc(Cl)cc(Cl)c2)n(COC/C(C)=C/c2ccccc2)c(=O)[nH]c1=O,,RT-K103N Y181C,NNRTI-resistant (RT K103N Y181C) A17,MT-4,>10 µM
CC(=O)OC(C)(C)CCC(=O)[C@](C)(O)[C@H]1[C@H](O)C[C@@]2(C)[C@@H]3CC=C4[C@@H](C[C@H](O)[C@@H](O)C4(C)C)[C@]3(C)C(=O)C[C@]12C,,,,C8166,84.7 µM
N#Cc1cccn1S(=O)(=O)c1cc(Cl)ccc1[N+](=O)[O-],,,IIIB,MT-4,>1.4 µM
CC(=O)Nc1nc(-c2ccc(S(=O)(=O)N(CC(C)C)C[C@@H](O)[C@H](Cc3ccccc3)NC(=O)O[C@H]3CO[C@H]4OCC[C@H]43)cc2)cs1,,,LAI,MT-4,0.005 µM
CC1(C)C=Cc2c(ccc3c2C(=O)C(=O)C(C2=C(Cl)C(=O)c4ccccc4C2=O)=C3O)O1,,,IIIB,CEM,2.8 µM
C=C(C)COCn1c(CC2CCCc3ccccc32)c(CC)c(=O)[nH]c1=O,,RT-Y181C,N119 RT-Y181C NNRTI-resistant,MT-4,>100 µM
CCOCn1c(Cc2cccc(OCC=NO)c2)c(CC)c(=O)[nH]c1=O,,,RT-K103N Y181C Mutant NNRTI-resistant,MT-4,54 µM
CCOCn1c(Cc2ccccc2)c(C(C)C)c(=O)[nH]c1=O,,,IIIB,MT-4,0.02 µM
CCc1c(Cc2cc(Cl)cc(Cl)c2)n(COC/C=C/c2ccccc2)c(=O)[nH]c1=O,,RT-Y181C,NNRTI-resistant (RT Y181C) N119,MT-4,3 µM
Cc1cc(C)c(S(N)(=O)=O)c(C)c1-c1c2nc(c(-c3c(C)cc(C)c(S(N)(=O)=O)c3C)c3ccc([nH]3)c(-c3c(C)cc(C)c(S(N)(=O)=O)c3C)c3nc(c(-c4c(C)cc(C)c(S(N)(=O)=O)c4C)c4ccc1[nH]4)C=C3)C=C2,,,IIIB,MT-4,>80 µg/mL
C=CCCc1cccc(Cc2c(CC)c(=O)[nH]c(=O)n2COCC)c1,,,RT-Y181C Mutant NNRTI-resistant,MT-4,2 µM
CC(CCC=C(CO)CO)C1CC[C@@]2(C)[C@@H]3CC=C4[C@@H](CCC(O)C4(C)C)[C@]3(C)C(O)C[C@]12C,,,,C8166,63.1 µM
Cc1[nH]c(=S)n(Nc2cccc(Cl)c2)c1C,,,NL4-3,MT-4,>259 µM
C=CCOCn1c(Cc2cc(Cl)cc(Cl)c2)c(CC)c(=O)[nH]c1=O,,,IIIB,MT-4,0.03 µM
Cc1ncn(Nc2ccccc2)c1C,,,IIIB,MT-4,>351 µM
C=CCCN1c2ccccc2C2C1C=C(C#N)C(=O)N2c1ccc([N+](=O)[O-])cc1,,,LAI,MT-4,<1 µM
CC(C)CN(C[C@@H](O)[C@H](Cc1ccccc1)NC(=O)O[C@H]1CO[C@H]2OCC[C@H]21)S(=O)(=O)c1ccc(-c2csc(N)n2)cc1,,,LAI,MT-4,0.003 µM
Cc1cc(C)cc(C(=O)c2c(C(C)C)c(=O)[nH]c(=O)n2Cc2ccccc2)c1,,,,MT-4,0.004 µg/mL
COc1ccc2c(c1)C(O)=C(C1=C(I)C(=O)c3ccccc3C1=O)C(=O)C2=O,,,IIIB,CEM,3.7 µM
C=CCOCn1c(Cc2cccc(OCC=C)c2)c(CC)c(=O)[nH]c1=O,,,IIIB,MT-4,0.4 µM
CCc1c(C(=O)c2cc(C)cc(C)c2)n(Cc2ccncc2)c(=O)[nH]c1=O,,,,MT-4,0.0027 µg/mL
Cc1cn([C@H]2C=C[C@@H](CO)O2)c(=O)[nH]c1=O,,,RD 02-RT-210W C215Y Recombinant,MT-4,0.7 µM
Cc1cc(C)cc(Nn2cnc(C)c2-c2ccccc2)c1,,RT-K103N Y181C,SO561945 (RT K103N Y181C),MT-4,>20.44 µM
Cc1sc(N)nc1-c1ccc(S(=O)(=O)N(CC(C)C)C[C@@H](O)[C@H](Cc2ccccc2)NC(=O)O[C@H]2CO[C@H]3OCC[C@H]32)cc1,,,LAI,MT-4,0.05 µM
Nc1ccc(Cl)cc1S(=O)(=O)n1cccc1C(=O)OCCO,,,IIIB,MT-4,9 µM
CCOC(=O)CCC(NC(=O)c1ccc(OCc2nc3ccccc3n3cccc23)cc1)C(=O)OCC,,,,MT-4,>100 µM
Cc1[nH]c(=S)n(Nc2cccc(Cl)c2)c1-c1ccccc1,,,IIIB,MT-4,6.39 µM
N#CC1=CC2Nc3ccccc3C2N(c2ccc(C#N)cc2)C1=O,,,LAI,MT-4,>32 µM
COc1ccc(S(=O)(=O)N(CC(C)C)C[C@@H](O)[C@H](Cc2ccccc2)NC(=O)[C@H](C(C)C)N2CC(=O)N(Cc3ccccc3)C2=O)cc1,50% human serum,,,MT-4,0.032 µM
CCc1c(C(=O)c2cc(C)cc(C)c2)n(Cc2ccccc2)c(=O)[nH]c1=O,,,,MT-4,0.003 µg/mL
C=CCOc1cccc(Cc2nc(N(C)C)[nH]c(=O)c2CC)c1,,,RT-K103N Y181C Mutant NNRTI-resistant,MT-4,>20 µM
O=C(O)c1ccc(-c2c3nc(c(-c4ccc(C(=O)O)cc4)c4ccc([nH]4)c(-c4ccc(C(=O)O)cc4)c4nc(c(-c5ccc(C(=O)O)cc5)c5ccc2[nH]5)C=C4)C=C3)cc1,,,IIIB,MT-4,0.9 µg/mL
C#CCOCn1c(Cc2cc(Cl)cc(Cl)c2)c(CC)c(=O)[nH]c1=O,,,IIIB,MT-4,0.02 µM
COc1cc(OCc2nc3ccccc3n3cccc23)cc(OC)c1OC,,,,MT-4,>55 µM
C=CCOc1cccc(Cc2[nH]c(=O)c(CC)c(O)c2CC)c1,,,IIIB,MT-4,>20 µM
CCC(C)[C@@H](C(=O)N[C@@H](Cc1ccccc1)[C@H](O)CN(CC(C)C)S(=O)(=O)c1ccc(/C=N/O)cc1)N1CC(=O)N(Cc2ccccn2)C1=O,50% human serum,,,MT-4,0.014 µM
Cc1cccc(Nc2nn3c(=O)c4ccccc4nc3s2)c1,,,IIIB,MT-4,40.65 µg/mL
CCc1[nH]c(=S)n(Nc2cccc(Cl)c2)c1-c1ccccc1,,,NL4-3,MT-4,>38.96 µM
CC(=O)O[C@@H]1C[C@@]2(C)C3CC=C4[C@@H](C[C@H](O)[C@@H](O)C4(C)C)[C@]3(C)C(=O)C[C@]2(C)C1C(C)(O)C(=O)/C=C/C(C)(C)OC(C)=O,,,,C8166,80.2 µM
O=S(=O)(c1cccc2cnccc12)N1CCNCC1,,,IIIB,MOLT-4,>8.4 µg/mL
Clc1cccc(Nn2cnc3c2CCCC3)c1,,,NL4-3,MT-4,>67.29 µM
CN1c2ccccc2C2C1C=CC(=O)N2c1ccc(-c2ncon2)cc1,,,LAI,MT-4,1–32 µM
CC(C)CN(C[C@@H](O)[C@H](Cc1ccccc1)NC(=O)[C@H](C(C)C)N1CC(=O)N(Cc2ccncc2)C1=O)S(=O)(=O)c1ccc(/C=N/O)cc1,,,,MT-4,0.016 µM
CNc1nc2ccc(S(=O)(=O)N(CC(C)C)C[C@@H](O)[C@H](Cc3ccccc3)NC(=O)c3cccc(O)c3C)cc2o1,,,LAI WT,MT-4,0.0093 µM
COc1ccc2c(c1)C(O)=C(C1=C(Cl)C(=O)c3ccccc3C1=O)C(=O)C2=O,,,IIIB,CEM,2.7 µM
Cc1nc(-c2ccc(S(=O)(=O)N(CC(C)C)C[C@@H](O)[C@H](Cc3ccccc3)NC(=O)O[C@H]3CO[C@H]4OCC[C@H]43)cc2)co1,,,LAI,MT-4,0.004 µM
O=C1C(=O)c2ccccc2C(O)=C1C1=C(Br)C(=O)c2ccccc2C1=O,,,IIIB,CEM,2.3 µM
COc1ccc(S(=O)(=O)N(CC(C)C)C[C@@H](O)[C@H](Cc2ccccc2)NC(=O)[C@H](C(C)C)N2CC(=O)N(Cc3csc(C)n3)C2=O)cc1,50% human serum,,,MT-4,0.161 µM

Repeating the final 5 entries:

{"structure": "CNc1nc2ccc(S(=O)(=O)N(CC(C)C)C[C@@H](O)[C@H](Cc3ccccc3)NC(=O)c3cccc(O)c3C)cc2o1", "strain or isolate": "LAI WT", "cells": "MT-4", "result": "0.0093 µM"}
{"structure": "COc1ccc2c(c1)C(O)=C(C1=C(Cl)C(=O)c3ccccc3C1=O)C(=O)C2=O", "strain or isolate": "IIIB", "cells": "CEM", "result": "2.7 µM"}
{"structure": "Cc1nc(-c2ccc(S(=O)(=O)N(CC(C)C)C[C@@H](O)[C@H](Cc3ccccc3)NC(=O)O[C@H]3CO[C@H]4OCC[C@H]43)cc2)co1", "strain or isolate": "LAI", "cells": "MT-4", "result": "0.004 µM"}
{"structure": "O=C1C(=O)c2ccccc2C(O)=C1C1=C(Br)C(=O)c2ccccc2C1=O", "strain or isolate": "IIIB", "cells": "CEM", "result": "2.3 µM"}
{"structure": "COc1ccc(S(=O)(=O)N(CC(C)C)C[C@@H](O)[C@H](Cc2ccccc2)NC(=O)[C@H](C(C)C)N2CC(=O)N(Cc3csc(C)n3)C2=O)cc1", "setting": "50% human serum", "cells": "MT-4", "result": "0.161 µM"}